Measurements from “University of Dundee, Small-Polar-MMV Screening Library” (2021), ChEMBL document CHEMBL3988442.

Results are given as percent effect.
The controls that fix the scale are not given in the record; negative values are as filed.
Many other results are left out here, so strong results are more common than in the screen.

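Phenotypic screen: M. tuberculosis growth, glucose 7H9 medium, 3 days; the read-out is not stated. Compounds at 500 µM. Direction is inferred from retests: higher values go with more growth inhibition. Of about 18,000 compounds tested this way, about 1,400 (7.9%) reached 50% or more in at least one test.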

With COCCNCCOc1ccc(C)cc1 the screen gave 2.407%. With CCOC(=O)c1sc(N)c(C#N)c1CN1CCOCC1 the screen gave 14.61%. For OCCCNc1cccc(Cl)c1-n1cccn1 the result was 55.47%. O=C(NCCc1ccc(F)c(F)c1)N1CCCC(O)C1 (configuration not stated) gave 70.31%.

Result for Cc1ccc(NC(=O)CN(C)CC(=O)N(C)C)cc1C was 40.34%. Result for COc1ccc(-c2noc(Cn3cncn3)n2)cn1 was 9.331%. Result for COCCNC(=O)COc1cc(Cl)ccc1C(=O)OC was 24.98%. For NCc1ccncc1OCc1ccccc1 the result was 55.5%.

Result for CCS(=O)(=O)NCCNS(=O)(=O)c1ccc(C)cc1Cl was 51.52%. CCn1nccc1[C@@H]1OCC[C@H]1CN gave 16.36%. With C[C@H](NC(=O)COC1CCCCC1)C(N)=O the screen gave 4.237%. CCN1CCC(NC(=O)Nc2ccccc2)CC1 gave -22.78%.

For COc1ccc(C(=O)NC(C)Cn2cccn2)c(O)c1 (configuration not stated) the result was 65.8%. With COc1cc(N2CCNCC2)ncn1 the screen gave 7.74%. Result for CCNC(=O)CNc1ccc(Br)cc1 was 74.37%. NCc1ccc(CNC(=O)C2CCCCO2)cc1 (configuration not stated) gave 25.8%.

Cc1ccc(C(=O)NCCCn2ccnc2)s1 read 10.68%. NC(=O)CSc1nnc(-c2ccco2)o1 gave 3.765%. Result for CNCC1(CO)CCOCC1 was -18.18%. Cc1ccc(CNC(=O)c2nccs2)cn1 gave 45.49%.

For Cc1cc(S(=O)(=O)Nc2cccnc2N(C)C)c(C)o1 the result was 46.69%. CC(C)Cc1cc(C(=O)NCC(O)C(F)(F)F)[nH]n1 (configuration not stated) read 61.14%. CCOc1ccc(C(C)=O)cc1N1C(=O)C=CC1=O read -0.6525%. Result for CC1(CO)CCCCN1 (configuration not stated) was -16.06%.

With CCn1ccnc1CN(C)CC1CCN(CCO)CC1 the screen gave 26.93%. Result for Cc1cc(CN2CCN(C(=O)N(C)C)CC2)on1 was 14.8%. CC1(C)CNC(=O)CN1C(=O)CC(F)(F)F gave 15.65%. CN(C)S(=O)(=O)N1CCCC1c1ccccc1Br (configuration not stated) read 80.91%.

CCN(CC(=O)NCc1ncccc1F)C1CC1 gave 8.2%. CC(C)n1nc(C(=O)N(C)C)c2ccccc2c1=O read 21.48%. COc1ccnc(C(=O)N(C)Cc2cnccn2)c1 gave 9.012%. O=C(NCCCN1Cc2ccccc2C1)C1CCC1 gave 27.27%.

With Cc1nc(COc2ccc(C(=O)OCC#N)cc2)no1 the screen gave 63.98%. O=S(=O)(CCN1CCCC1)c1ccccc1 gave 21.45%. With COc1ccc(C(C#N)N2CCNCC2)cc1 (configuration not stated) the screen gave 7.009%. With COc1cc(C(N)=O)cc2c1OCCO2 the screen gave 7.111%.

For NC1(CF)CCOCC1 the result was 4.309%. Result for O=C1CC(c2ccccc2)NCCN1 (configuration not stated) was -1.871%. Result for Nc1nnc(SCc2cn3ccccc3n2)[nH]1 was -1.096%. OCCCSc1ccncc1NCc1cccc(O)c1 read 7.002%.

NCc1ccc(N2CCCS2(=O)=O)c(F)c1 gave 1.737%. Result for CSCCN(C)Cc1cn(-c2ccccc2)nn1 was 65.39%. Result for CCN(Cc1cc2cc(C)ccc2nc1O)C(C)=O was 40.82%. For CCO[C@H]1CN(c2ccc(C(N)=O)cn2)C[C@@H]1O the result was 6.043%.

Result for Cc1cc(C)c(CNC(=O)Cc2cccs2)c(=O)[nH]1 was 27.21%.

The last 4 entries again:

- CSCCN(C)Cc1cn(-c2ccccc2)nn1 | 65.39%
- CCN(Cc1cc2cc(C)ccc2nc1O)C(C)=O | 40.82%
- CCO[C@H]1CN(c2ccc(C(N)=O)cn2)C[C@@H]1O | 6.043%
- Cc1cc(C)c(CNC(=O)Cc2cccs2)c(=O)[nH]1 | 27.21%